From patent publication US6967075B2 (priority 2000, dated 2005)

The chains behind the UniProt entries cited, without tags or fusion partners. Where a name states a change or a piece, a line headed by the entry shows the natural chain unless it says otherwise.
UniProt P03300: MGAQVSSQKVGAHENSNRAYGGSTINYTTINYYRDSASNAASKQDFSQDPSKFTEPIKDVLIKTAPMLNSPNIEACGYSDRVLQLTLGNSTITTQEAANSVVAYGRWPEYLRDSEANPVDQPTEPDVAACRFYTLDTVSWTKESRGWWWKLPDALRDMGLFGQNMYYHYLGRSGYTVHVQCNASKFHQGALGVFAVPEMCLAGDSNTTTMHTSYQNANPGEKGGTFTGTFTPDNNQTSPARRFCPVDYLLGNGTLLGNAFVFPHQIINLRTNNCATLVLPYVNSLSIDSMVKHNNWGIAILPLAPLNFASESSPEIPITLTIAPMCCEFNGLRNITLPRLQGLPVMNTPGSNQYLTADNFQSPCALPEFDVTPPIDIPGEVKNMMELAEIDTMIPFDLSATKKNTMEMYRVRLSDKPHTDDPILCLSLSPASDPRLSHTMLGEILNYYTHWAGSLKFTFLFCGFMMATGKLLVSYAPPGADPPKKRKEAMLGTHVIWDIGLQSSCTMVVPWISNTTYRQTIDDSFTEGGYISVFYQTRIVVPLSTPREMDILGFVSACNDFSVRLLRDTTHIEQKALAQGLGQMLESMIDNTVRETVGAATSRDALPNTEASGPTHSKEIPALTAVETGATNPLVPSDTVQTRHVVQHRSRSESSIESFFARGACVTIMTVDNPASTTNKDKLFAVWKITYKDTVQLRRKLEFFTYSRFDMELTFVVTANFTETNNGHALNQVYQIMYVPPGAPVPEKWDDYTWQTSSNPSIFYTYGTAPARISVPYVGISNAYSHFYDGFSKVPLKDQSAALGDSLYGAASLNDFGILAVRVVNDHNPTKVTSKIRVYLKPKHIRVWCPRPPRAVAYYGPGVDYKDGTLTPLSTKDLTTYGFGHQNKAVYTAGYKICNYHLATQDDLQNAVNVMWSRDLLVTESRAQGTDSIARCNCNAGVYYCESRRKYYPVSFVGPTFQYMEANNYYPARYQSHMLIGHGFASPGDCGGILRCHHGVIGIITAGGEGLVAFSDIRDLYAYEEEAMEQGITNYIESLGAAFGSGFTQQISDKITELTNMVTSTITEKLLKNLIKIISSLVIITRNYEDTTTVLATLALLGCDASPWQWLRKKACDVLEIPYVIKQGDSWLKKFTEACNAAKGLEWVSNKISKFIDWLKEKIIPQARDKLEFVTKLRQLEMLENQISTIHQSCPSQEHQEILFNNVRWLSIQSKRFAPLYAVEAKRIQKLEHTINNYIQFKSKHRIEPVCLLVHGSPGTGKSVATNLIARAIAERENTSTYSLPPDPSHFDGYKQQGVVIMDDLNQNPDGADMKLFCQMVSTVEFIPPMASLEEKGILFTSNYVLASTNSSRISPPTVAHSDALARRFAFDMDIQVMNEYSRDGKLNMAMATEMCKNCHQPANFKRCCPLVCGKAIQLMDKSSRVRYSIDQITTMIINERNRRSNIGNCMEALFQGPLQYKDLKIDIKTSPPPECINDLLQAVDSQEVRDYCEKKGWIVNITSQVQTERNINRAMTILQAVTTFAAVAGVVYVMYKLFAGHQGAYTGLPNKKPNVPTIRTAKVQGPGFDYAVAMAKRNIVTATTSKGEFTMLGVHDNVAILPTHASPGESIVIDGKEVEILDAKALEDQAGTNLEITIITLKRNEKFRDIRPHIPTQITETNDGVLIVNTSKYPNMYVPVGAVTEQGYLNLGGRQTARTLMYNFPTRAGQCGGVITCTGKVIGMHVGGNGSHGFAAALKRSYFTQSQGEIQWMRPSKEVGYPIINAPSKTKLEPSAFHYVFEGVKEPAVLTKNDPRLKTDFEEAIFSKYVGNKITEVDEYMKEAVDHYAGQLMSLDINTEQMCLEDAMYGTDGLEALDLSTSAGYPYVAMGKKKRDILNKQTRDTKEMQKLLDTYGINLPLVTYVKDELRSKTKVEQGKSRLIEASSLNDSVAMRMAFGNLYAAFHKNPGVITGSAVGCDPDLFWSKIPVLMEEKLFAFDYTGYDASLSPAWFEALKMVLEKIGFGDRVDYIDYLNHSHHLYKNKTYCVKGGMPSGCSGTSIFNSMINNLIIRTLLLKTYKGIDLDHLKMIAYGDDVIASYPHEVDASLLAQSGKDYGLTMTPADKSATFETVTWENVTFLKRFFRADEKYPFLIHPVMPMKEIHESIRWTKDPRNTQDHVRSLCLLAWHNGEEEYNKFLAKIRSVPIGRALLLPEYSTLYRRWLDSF

Target: PV 3Dpol (Poliovirus type 1, UniProt P03300)
Assay: Template usage assay with pre-annealed sym/sub RNA
Settings: 0.5 μM end-labeled sym/sub RNA, 100 μM ATP, 5 μM polymerase

With 5′ GCA UGG GCC C 3′ the “extension/utilization of end-labeled RNA” value was “efficiently utilized”.
